{
  "source": "paper PMC6572805",
  "system": "CC(=O)N[C@H]1[C@H](Oc2ccc3c(C)cc(=O)oc3c2)O[C@H](CO)[C@@H](O)[C@@H]1O",
  "assay": "purified protein",
  "settings": "pH 7.5; 37.0 °C",
  "data": [
    {"substance": "LpqI (LpqITB) (Mycobacterium tuberculosis H37Rv)", "values": [
      {"measurement": "Km", "value": "72 ± 5", "unit": "µM"}
    ]}
  ]
}
